Experimental data: PubChem BioAssay AID624099 (ICCB-Longwood, 2012)

- Purpose: 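Knock-downs relieving repression by E2 of an HPV18 LCR luciferase reporter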 (primary screen)
- Cell system: human C33A cervical carcinoma cells (HPV-negative) stably expressing BPV1 E2 and an HPV18 LCR luciferase reporter
- Reagents: siRNA pool against human genes, 40 nM
- Timing: 72 h
- Measured: 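Per-well luciferase luminescence, z-scored on each plate against the plate mean and SD with control wells left out, then averaged across three replicate plates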
- Scale: mean z-score and z-score: higher = stronger reporter signal, weaker E2 silencing
- Active means: 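Hit if mean z-score reaches 2 and two or more of three replicate z-scores also reach 2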
Shown is a random part of about 21,000 deposited reagents. 497 of them (2.4%) count as active. 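Higher z means weaker E2 silencing; only reporter increases were scored, and knock-downs that hurt cell survival may mask genuine repressor factors.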 Entries without a mark were called inactive.

gene	mean z-score	z-score, replicate A	z-score, replicate B	z-score, replicate C
DEFB132	-0.39	-0.04	-0.47	-0.65
RGS6	0.08	0.01	0.16	0.07
C22orf42	0.74	0.68	0.78	0.75
NKX6-3	-0.91	-0.88	-0.97	-0.89
TMEM14B	-0.3	-0.49	-0.26	-0.16
CYP2W1	0.27	0.18	0.22	0.42
LOC387789 (retired record)	0.09	0.39	0.07	-0.2
DPEP3	0.57	0.17	0.37	1.18
DOLPP1	-0.83	-0.98	-0.76	-0.76
TMX2	0.96	0.98	1.1	0.81
EPM2AIP1	0.37	0.67	0.22	0.21
PPP1R21	-1.89	-1.93	-1.93	-1.81
FBXL12	0.32	0.35	0.33	0.28
SCN4A	0.57	0.62	0.67	0.4
RABGGTA	-0.61	-0.17	-0.87	-0.79
ST6GALNAC6	-0.81	-0.9	-0.94	-0.59
KIF17	0.84	0.95	0.51	1.05
NKX6-1	0.91	0.88	0.9	0.95
ZBTB16	-0.62	-0.61	-0.6	-0.64
ATP1B3	-0.85	-0.59	-0.8	-1.15
C9orf163	-1.1	-0.51	-1.54	-1.23
TRAF7	0.02	0.4	0.05	-0.41
LOC440320 (retired record)	-0.19	0.27	-0.38	-0.46
SMURF1	0.5	0.45	0.41	0.65
LOC387887 (retired record)	0.61	0.41	0.74	0.68
THUMPD2	1.4	1.17	1.32	1.72
TRAIP	-1.01	-0.94	-1.23	-0.85
HBD	1.04	1.2	0.98	0.94
RPL5	-2.89	-3	-2.8	-2.87
TRPM2	-0.63	-0.51	-0.91	-0.47
ZNF101	-0.69	-0.96	-0.62	-0.48
HNRNPA1P7	1.81	1.85	1.64	1.93
CSE1L	1.16	0.92	1.39	1.16
MYL3	1.34	1.16	1.5	1.37
ZNF385D	-0.21	0.21	-0.82	-0.01
LOC283584 (retired record)	-0.66	-1.02	-0.43	-0.52
AGPAT4-IT1	1.37	1.6	1.56	0.94
USP4	0.94	0.83	0.95	1.05
BDP1	-0.46	-0.72	-0.26	-0.39
LRRC8C-DT	0.49	0.58	0.56	0.34
RPL31P4	0.2	0.18	0.31	0.1
HLA-B	0.48	0.41	0.49	0.55
LOC402564 (retired record)	0.26	0.45	0.32	0
C19orf44	1.29	1.21	1.49	1.17
CTCFL	0.55	0.45	0.83	0.37
SLC4A7	1.2	1.52	0.98	1.11
CTDSP2	-0.91	-0.83	-0.76	-1.14
B3GALT5-AS1	-0.81	-0.63	-0.86	-0.93
PIGR	-1.3	-1.33	-1.44	-1.15
STATH	0.23	0.31	0.05	0.35
CPA3	0.2	0.04	0.28	0.27
FNDC3A	-0.92	-0.43	-0.96	-1.37
VPS11	-0.53	-0.86	-0.42	-0.33
RGPD4	1.86	2.06	2	1.52
HSPD1	-0.52	0.01	-0.84	-0.74
TSHZ2	-0.72	-0.64	-0.7	-0.82
RNF111	-1.04	-1.25	-1.14	-0.72

Reprinted from the entries so far (5 entries):
gene	mean z-score	z-score, replicate A	z-score, replicate B	z-score, replicate C
DPEP3	0.57	0.17	0.37	1.18
DOLPP1	-0.83	-0.98	-0.76	-0.76
TMX2	0.96	0.98	1.1	0.81
EPM2AIP1	0.37	0.67	0.22	0.21
PPP1R21	-1.89	-1.93	-1.93	-1.81
